Values from PubChem BioAssay AID624099 (ICCB-Longwood, 2012)
Assay: 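Knock-downs relieving repression by E2 of an HPV18 LCR luciferase reporter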 (primary screen). System: human C33A cervical carcinoma cells (HPV-negative) stably expressing BPV1 E2 and an HPV18 LCR luciferase reporter. Reagent: siRNA pool against human genes, 40 nM. Time to read-out: 72 h. Read-out: 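Per-well luciferase luminescence, z-scored on each plate against the plate mean and SD with control wells left out, then averaged across three replicate plates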. Direction: mean z-score and z-score: higher = stronger reporter signal, weaker E2 silencing. Hit rule: 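Hit if mean z-score reaches 2 and two or more of three replicate z-scores also reach 2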.
In all, the deposit lists about 21,000 reagents; below is a random part of them. 497 of all reagents (2.4%) were called active. 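Higher z means weaker E2 silencing; only reporter increases were scored, and knock-downs that hurt cell survival may mask genuine repressor factors.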 Entries without a mark were called inactive. The numbers tell different reagents against one gene apart.

| target | pool no. | mean z-score | z-score, replicate A | z-score, replicate B | z-score, replicate C |
| --- | --- | --- | --- | --- | --- |
| TJP3P1 (TJP3 pseudogene 1) | 1 | -0.14 | 0.23 | -0.49 | -0.15 |
| EHHADH-AS1 (EHHADH antisense RNA 1) | 1 | -0.74 | -0.89 | -0.63 | -0.69 |
| SCGB3A1 (secretoglobin family 3A member 1) | 1 | 0.62 | 0.72 | 0.54 | 0.59 |
| LINC01600 (long independently transcribed non-coding RNA 1600) | 1 | 0.12 | -0.18 | 0.37 | 0.17 |
| WFDC10B (WAP four-disulfide core domain 10B) | 1 | -0.75 | -0.4 | -0.69 | -1.16 |
| PRKAG3 (protein kinase AMP-activated non-catalytic subunit gamma 3) | 1 | 1.34 | 0.79 | 1.76 | 1.46 |
| LINC01235 (long independently transcribed non-coding RNA 1235) | 1 | -0.2 | 0 | 0.03 | -0.63 |
| LOC389687 (retired record) | 1 | 0.19 | 0.47 | -0.09 | 0.19 |
| LOC391817 (retired record) | 1 | -0.63 | -0.97 | -0.29 | -0.62 |
| LOC339553 (retired record) | 1 | 1.84 | 1.85 | 2.01 | 1.68 |
| ENKD1 (enkurin domain containing 1) | 1 | -0.17 | 0.03 | -0.03 | -0.52 |
| SLC29A1 | 1 | -0.62 | -0.58 | -0.63 | -0.66 |
| PPP1R15A (protein phosphatase 1 regulatory subunit 15A) | 1 | -1.26 | -0.89 | -1.26 | -1.64 |
| RPS11 (ribosomal protein S11) | 1 | -1.83 | -1.68 | -1.98 | -1.82 |
| MKKS (MKKS centrosomal shuttling protein) | 1 | 0.14 | 0.23 | -0.11 | 0.3 |
| HAUS1 (HAUS augmin like complex subunit 1) | 1 | -0.57 | -0.38 | -0.34 | -1 |
| LINC00311 (long independently transcribed non-coding RNA 311) | 1 | 0.5 | 0.29 | 0.98 | 0.22 |
| LINC02870 (long independently transcribed non-coding RNA 2870) | 1 | -0.21 | -0.43 | -0.12 | -0.08 |
| AKIRIN1 (akirin 1) | 1 | -0.19 | -0.01 | -0.2 | -0.36 |
| PRKD2 (protein kinase D2) | 1 | -0.11 | -0.06 | -0.29 | 0.03 |
| LCN12 (lipocalin 12) | 1 | -0.23 | -0.34 | -0.17 | -0.18 |
| EIF1AD | 1 | 0.55 | 0.66 | 0.49 | 0.5 |
| LOC401123 (retired record) | 1 | -0.22 | -0.15 | -0.25 | -0.25 |
| HSPA12B (heat shock protein family A (Hsp70) member 12B) | 1 | 0.47 | 0.36 | 0.7 | 0.34 |
| SLMAP (sarcolemma associated protein) | 1 | 1.34 | 1.46 | 1.45 | 1.1 |
| MAOB (monoamine oxidase B) | 1 | 0.65 | 0.56 | 0.78 | 0.6 |
| GUCA1C (guanylate cyclase activator 1C) | 1 | 0.11 | -0.03 | 0.09 | 0.29 |
| SEC61A1 (SEC61 translocon subunit alpha 1) | 1 | 0.68 | 0.58 | 0.7 | 0.78 |
| GIPC3 (GIPC PDZ domain containing family member 3) | 1 | -0.49 | -0.36 | -0.52 | -0.58 |
| JCAD (junctional cadherin 5 associated) | 1 | -0.45 | -0.3 | -0.87 | -0.19 |
| LOC390975 (retired record) | 1 | -1.58 | -1.67 | -1.57 | -1.5 |
| ANO1 (anoctamin 1) | 1 | 0.73 | 0.6 | 0.85 | 0.73 |
| MDM4 (MDM4 regulator of p53) | 1 | 0.01 | 0.18 | -0.11 | -0.02 |
| KIF7 (kinesin family member 7) | 1 | -0.72 | -0.95 | -0.47 | -0.75 |
| KIF7 (kinesin family member 7) | 2 | 0.8 | 1.02 | 0.64 | 0.74 |
| CROCCP3 (CROCC pseudogene 3) | 1 | -1.02 | -1.19 | -0.68 | -1.19 |
| SPIRE2 (spire type actin nucleation factor 2) | 1 | 1.01 | 1.19 | 1.3 | 0.54 |
| NETO1 (neuropilin and tolloid like 1) | 1 | -1.03 | -1.16 | -1.1 | -0.83 |
| PCOLCE2 (procollagen C-endopeptidase enhancer 2) | 1 | 1.28 | 1.11 | 1.45 | 1.28 |
| SYNC (syncoilin, intermediate filament protein) | 1 | -0.76 | -0.27 | -1.06 | -0.96 |
| ZBTB18 (zinc finger and BTB domain containing 18) | 1 | 0.51 | 1.21 | 0.35 | -0.04 |
| JUP (junction plakoglobin) | 1 | 0.31 | 0 | 0.37 | 0.55 |
| LOC387686 (retired record) | 1 | 0.47 | 0.47 | 0.44 | 0.5 |
| AOC3 (amine oxidase copper containing 3) | 1 | -0.16 | -0.17 | -0.12 | -0.19 |
| PAX4 (paired box 4) | 1 | 1.01 | 1.12 | 0.96 | 0.94 |
| CENPU (centromere protein U) | 1 | 0.46 | 0.47 | 0.48 | 0.45 |
| CDH26 (cadherin 26) | 1 | -0.1 | -0.42 | -0.14 | 0.26 |
| EXTL2 (exostosin like glycosyltransferase 2) | 1 | -0.74 | -0.83 | -1.19 | -0.21 |
| ARL14EP (ARF like GTPase 14 effector protein) | 1 | 0.13 | 0.07 | 0.21 | 0.1 |
| DENND10P1 (DENND10 pseudogene 1) | 1 | 2.73 (active) | 2.9 | 3.01 | 2.27 |
| ZXDA (zinc finger X-linked duplicated A) | 1 | 0.47 | 0.35 | 0.49 | 0.56 |
| DCUN1D5 (defective in cullin neddylation 1 domain containing 5) | 1 | -0.48 | -0.44 | -0.6 | -0.39 |
| TEKT1 (tektin 1) | 1 | 0.77 | 0.54 | 0.81 | 0.97 |
| KRTAP9-3 (keratin associated protein 9-3) | 1 | -0.64 | -0.63 | -0.66 | -0.63 |
| LZTS1 (leucine zipper tumor suppressor 1) | 1 | -0.65 | -0.61 | -0.65 | -0.68 |
| BHMT (betaine--homocysteine S-methyltransferase) | 1 | 0.6 | 1.07 | 0.11 | 0.6 |
| CCDC81 (coiled-coil domain containing 81) | 1 | -0.48 | -1.03 | -0.21 | -0.21 |
| CDK11A (cyclin dependent kinase 11A) | 1 | -1.39 | -1.46 | -1.19 | -1.53 |
| SAMD5 (sterile alpha motif domain containing 5) | 1 | -0.54 | -0.57 | -0.52 | -0.53 |
| ACADL (acyl-CoA dehydrogenase long chain) | 1 | 0.72 | 0.67 | 0.72 | 0.77 |
| HAUS8 (HAUS augmin like complex subunit 8) | 1 | -0.13 | -0.1 | -0.21 | -0.08 |
| KNTC1 (kinetochore associated 1) | 1 | 0.09 | -0.05 | 0.23 | 0.09 |
| FCGR2B (Fc gamma receptor IIb) | 1 | -0.44 | -0.4 | -0.39 | -0.53 |
| RNF216 (ring finger protein 216) | 1 | 1.5 | 1.35 | 1.38 | 1.77 |
| CUZD1 (CUB and zona pellucida like domains 1) | 1 | 0.07 | -0.07 | -0.1 | 0.39 |
| VWF (von Willebrand factor) | 1 | 0.21 | 0.35 | 0.58 | -0.3 |
| TMEM44 (transmembrane protein 44) | 1 | -0.97 | -1.33 | -0.78 | -0.79 |
| WAS (WASP actin nucleation promoting factor) | 1 | -0.35 | -0.23 | -0.62 | -0.19 |
| FAM76A (family with sequence similarity 76 member A) | 1 | -0.34 | -0.3 | -0.92 | 0.2 |
| GC (GC vitamin D binding protein) | 1 | 0.04 | -0.12 | -0.22 | 0.45 |
| OR8K1 (olfactory receptor family 8 subfamily K member 1) | 1 | -0.13 | -0.3 | -0.43 | 0.35 |
| COL5A1 (collagen type V alpha 1 chain) | 1 | 0.35 | -0.01 | 0.57 | 0.48 |
| HENMT1 (HEN methyltransferase 1) | 1 | 1.09 | 1.31 | 0.83 | 1.14 |

10 entries already listed, sorted by “z-score, replicate C”, highest first:
| target | pool no. | mean z-score | z-score, replicate A | z-score, replicate B | z-score, replicate C |
| --- | --- | --- | --- | --- | --- |
| LOC339553 (retired record) | 1 | 1.84 | 1.85 | 2.01 | 1.68 |
| PRKAG3 (protein kinase AMP-activated non-catalytic subunit gamma 3) | 1 | 1.34 | 0.79 | 1.76 | 1.46 |
| SCGB3A1 (secretoglobin family 3A member 1) | 1 | 0.62 | 0.72 | 0.54 | 0.59 |
| LOC389687 (retired record) | 1 | 0.19 | 0.47 | -0.09 | 0.19 |
| LINC01600 (long independently transcribed non-coding RNA 1600) | 1 | 0.12 | -0.18 | 0.37 | 0.17 |
| ENKD1 (enkurin domain containing 1) | 1 | -0.17 | 0.03 | -0.03 | -0.52 |
| LOC391817 (retired record) | 1 | -0.63 | -0.97 | -0.29 | -0.62 |
| LINC01235 (long independently transcribed non-coding RNA 1235) | 1 | -0.2 | 0 | 0.03 | -0.63 |
| EHHADH-AS1 (EHHADH antisense RNA 1) | 1 | -0.74 | -0.89 | -0.63 | -0.69 |
| WFDC10B (WAP four-disulfide core domain 10B) | 1 | -0.75 | -0.4 | -0.69 | -1.16 |
